Results of unrelated studies side by side (data: NIAID ChemDB).

All rows: cytotoxicity tests; cell line: HeLa; read-out: CC50

Conditions beyond the fields shown may differ between rows.

smiles,method,value
OC[C@H]1O[C@@H](n2cnc3cc(Cl)c(Cl)cc32)[C@@H](O)[C@@H]1O,-,≥400 µg/mL
C[C@H]1CCC/C=C/[C@@H]2C[C@H](O)C[C@H]2[C@@H](O)/C=C/C(=O)O1,-,<10 µg/mL
COC(=O)[C@]1(C)CCC[C@@]2(C)[C@H]1[C@H](O)CC1CC(=O)[C@]3(C)CC[C@]12C3,-,210 µM
CS/C(Nc1ccccc1C(F)(F)F)=C(/C#N)S(=O)(=O)c1ccccc1,MTT / absorbance,<0.05 µM
Nc1ncnc2c1ccn2[C@@H]1O[C@H](CO)[C@@H](O)[C@H]1O,-,200 µg/mL
OC[C@H]1O[C@H](n2cnc3cc(Cl)c(Cl)cc32)[C@@H](O)[C@H]1O,-,≥400 µg/mL
NC(=O)O[C@@H]1[C@@H](O)[C@H](O)[C@H](NC(=O)[C@@H]2CCC(N)=N2)[C@H](O)[C@H]1O[C@@H]1O[C@H](CO)[C@@H](O[C@H]2O[C@H](CO)[C@@H](O)[C@H](O)[C@H]2NC(=O)[C@@H](N)CCCN=C(N)N)[C@H](O)[C@@H]1O,-,100 µg/mL
Nc1ncnc2c1ncn2CC(O)C(=O)O,trypan blue,>500 µg/mL
CC(C)[Si]1(C(C)C)OC[C@H]2O[C@@H](n3cnc4cc(Cl)c(Cl)cc43)[C@@H](O)[C@H]2O[Si](C(C)C)(C(C)C)O1,-,40–400 µg/mL
Nc1ccn([C@H]2C[C@H](O)[C@](CO)(CF)O2)c(=O)n1,-,>200 µM
CC1CC(OC(=O)C(O)c2ccccc2)CC(C)(C)C1,-,20–100 µg/mL
CCc1ccc(-c2nc3c(=O)n(C)c(=O)nc-3n(CC)n2)cc1,fluorescence,3.2 µM
O=c1[nH]cnc2c1ncn2[C@H]1CC[C@@H](CO)O1,-,>100 µM
COc1cc(C2C3(O)C(O)C4CC2(O)C(O)(C(=O)O4)C3C(=O)c2ccccc2)oc(=O)c1,-,>100 µg/mL
CN1C(=O)[C@]23CC4=CC=C[C@H](O)[C@H]4N2C(=O)[C@@]1(CO)SS3,-,0.6 µg/mL
C#C[C@]1(CO)O[C@@H](n2cnc3c(=O)[nH]cnc32)C[C@@H]1O,-,>200 µM
CC(=O)OC1C=COC=C2C[C@@]3(S)C(=O)N4C5C(=COC=CC5OC(C)=O)C[C@@]4(S)C(=O)N3C21,-,>160 µg/mL
C[C@]12C[C@H](O)[C@H]3[C@@H](CCC4=CC(=O)CC[C@@]43C)[C@@H]1CC[C@@H]2C(=O)CO,-,>10 µg/mL
Nc1ccc(N2CCCCC2)c2nonc12,fluorescence,25 µM
CS/C(Nc1cccc(C(F)(F)F)c1)=C(/C#N)S(=O)(=O)c1ccccc1,MTT / absorbance,13.3 µM
CN[C@@H]1[C@@H](O[C@H]2O[C@H](CO)[C@@H](N)[C@H](O)[C@H]2O)O[C@H]2C[C@@H](N)C(O[C@H]3[C@H](O)[C@@H](O)[C@H](N)C[C@@H]3N)O[C@@H]2[C@@H]1O,-,>200 µg/mL
Nc1ncnc2c1ccn2[C@@H]1O[C@H](CO)[C@H](O)[C@H]1O,trypan blue,4 µg/mL
C#C[C@]1(CO)O[C@@H](n2cc(I)c(=O)[nH]c2=O)C[C@@H]1O,-,>200 µM
CC(=O)OC1C=COC=C2C[C@@]3(SC(C)=O)C(=O)N4C5C(=COC=CC5OC(C)=O)C[C@@]4(SC(C)=O)C(=O)N3C21,-,40 µg/mL
OC[C@H]1O[C@@H](n2cnc3cc(Cl)c(Cl)cc32)[C@@H](O)[C@H]1O,-,≥200 µg/mL
Nc1ccn([C@H]2CC[C@@H](CO)O2)c(=O)n1,-,>100 µM
CC/C=C\C/C=C\C/C=C\CCCCCCCCO,-,25 µg/mL
C[C@@]12CC[C@]3(C1)C(C[C@@H](O)[C@H]1[C@](C)(CO)CCC[C@@]13C)C[C@@H]2O,-,190 µM
Nc1ncnc2c1c(Cl)cn2[C@@H]1O[C@H](CO)[C@@H](O)[C@H]1O,trypan blue,4 µg/mL
C=C1CCC2CC(C(=C)C)C2(C)CCC(C(=C)C(=O)O)CC1CC=C(C)C,-,202 µg/mL
O=C1N2C3C(=COC=CC3O)C[C@]23SSSS[C@]12CC1=COC=CC(O)C1N2C3=O,-,3 µg/mL
N#C/C(=C(\Nc1cccc(C(F)(F)F)c1)Sc1ccccc1)S(=O)(=O)c1ccccc1,MTT / absorbance,1 µM
COC(=O)[C@]1(C)CCC[C@@]2(C)[C@H]1C(=O)CC1CC(=O)[C@]3(C)CC[C@]12C3,-,202 µM
CC(=O)OC1C=COC=C2C[C@H]3C(=O)N4C5C(=COC=CC5OC(C)=O)C[C@H]4C(=O)N3C21,-,80 µg/mL
C[C@@]12CC[C@]3(C1)C(C[C@@H](O)[C@H]1[C@](C)(C(=O)O)CCC[C@@]13C)C[C@H]2O,-,>898 µM
CCC(N)C(O)C(O)C(C)C(=O)NC(CC(C)C)C1Cc2cccc(O)c2C(=O)O1,-,2 µg/mL
COC(=O)[C@]1(C)CCC[C@@]2(C)[C@H]1[C@H](OC(=O)c1ccccc1)CC1C[C@@H](O)[C@]3(C)CC[C@]12C3,-,14.8 µM
CC(C)S/C(Nc1cccc(C(F)(F)F)c1)=C(/C#N)S(=O)(=O)c1ccccc1,MTT / absorbance,7.1 µM
C[C@@]12CC[C@]3(C1)C(CC2=O)C[C@@H](O)[C@H]1[C@](C)(C(=O)O)CCC[C@@]13C,-,898 µM
N#Cc1c(C(N)=O)ncn1[C@@H]1O[C@H](CO)[C@@H](O)[C@H]1O,trypan blue,>500 µg/mL

Repeating the final 5 entries:

smiles,method,value
CCC(N)C(O)C(O)C(C)C(=O)NC(CC(C)C)C1Cc2cccc(O)c2C(=O)O1,-,2 µg/mL
COC(=O)[C@]1(C)CCC[C@@]2(C)[C@H]1[C@H](OC(=O)c1ccccc1)CC1C[C@@H](O)[C@]3(C)CC[C@]12C3,-,14.8 µM
CC(C)S/C(Nc1cccc(C(F)(F)F)c1)=C(/C#N)S(=O)(=O)c1ccccc1,MTT / absorbance,7.1 µM
C[C@@]12CC[C@]3(C1)C(CC2=O)C[C@@H](O)[C@H]1[C@](C)(C(=O)O)CCC[C@@]13C,-,898 µM
N#Cc1c(C(N)=O)ncn1[C@@H]1O[C@H](CO)[C@@H](O)[C@H]1O,trypan blue,>500 µg/mL

a–b is a range or a potency band. Blank or dashed fields: not listed here. CCn: concentration that lowers growth or viability of the cells by n%.